Compound potency records, mixed from different reports. Data source: NIAID ChemDB in PubChem.

Common to all: whole-cell or culture tests; organism: Aspergillus niger; endpoint: zone

An empty or dashed field is not shown.

SMILES,strain,tested at,read by,value
Cc1ccc(/C=C(\C#N)c2ccc([N+](=O)[O-])cc2)cc1,,100 µg,agar diffusion,0 mm
COc1ccc(-c2nc3ccccc3c(=O)n2-c2ccc(NS(=O)(=O)C3C(=O)ONN3c3ccc(C)cc3)cc2)cc1[N+](=O)[O-],MTCC 282,250 µg/mL,agar diffusion,22 mm
N#C/C(=C\c1ccccc1)c1ccc([N+](=O)[O-])cc1,,100 µg,agar diffusion,0 mm
Cc1ccc(N2NOC(=O)C2S(=O)(=O)Nc2nc3ccc(Br)cc3s2)cc1,MTCC 282,250 µg/mL,agar diffusion,21 mm
COc1ccc2[nH]c3nc(-n4[nH]c(=O)c5ccccc5c4=O)c4ccccc4c3c2c1,MTCC 281,3.125 µg/mL,agar diffusion / visual reading,13 mm
Cc1n[nH]c(=S)n1N=C/C=C/c1c(-c2ccc(F)cc2)c2ccccc2n1C(C)C,,200 µg/mL,,12 mm
Cc1nn(-c2ccccc2)c2c1C1(C(=O)N(CCCCCCN3C(=O)C4(SCC(=O)N4c4c(C)n(C)n(-c5ccccc5)c4=O)c4ccccc43)c3ccccc31)c1c(C)nn(-c3ccccc3)c1O2,MTCC 282,100 µg/mL,agar diffusion,16 mm
COc1ccc(C2N=C(SC)NC(N)=C2C#N)cc1,MTCC 282,100 µg/mL,agar diffusion,15 mm
Cc1ccc2c(c1)C1(SCC(=O)N1c1c(C)n(C)n(-c3ccccc3)c1=O)C(=O)N2CCCCCCBr,MTCC 282,100 µg/mL,agar diffusion,15 mm
Cc1ccc(S(=O)(=O)CNc2oc3[nH]c(=O)[nH]c(=O)c3c2-c2ccc(F)cc2)cc1,,50 µg/mL,agar diffusion / agar,2 mm
N#C/C(=C\c1ccc(Cl)cc1)c1ccc([N+](=O)[O-])cc1,,100 µg,agar diffusion,0 mm
Clc1nc2ccccc2cc1CNc1ccccc1,MTCC 281,200 µg/mL,agar diffusion,11.97 mm
CSC1=NC(c2ccc(O)cc2)C(C#N)=C(N)N1,MTCC 282,100 µg/mL,agar diffusion,16 mm
N#C/C(=C\c1ccccc1)c1ccccc1,,100 µg,agar diffusion,0 mm
CN(Cc1cc2ccccc2nc1Cl)c1ccc(Cl)cc1,MTCC 281,200 µg/mL,agar diffusion,17.08 mm
Cc1[nH]n(C(=O)c2sc3ccc(Cl)cc3c2Cl)c(=O)c1N=Nc1ccc(Cl)cc1Cl,ATCC 9029,40 µg/mL,agar diffusion / agar,28 mm
Cc1ccc2c(c1)C1(SCC(=O)N1c1c(C)n(C)n(-c3ccccc3)c1=O)C(=O)N2CCCCCCN1C(=O)C2(c3cc(F)ccc31)c1c(C)nn(-c3ccccc3)c1Oc1c2c(C)nn1-c1ccccc1,MTCC 282,100 µg/mL,agar diffusion,18 mm
Cc1ccc(S(=O)(=O)CNc2oc3[nH]c(=O)[nH]c(=O)c3c2-c2ccsc2C=O)cc1,,100 µg/mL,agar diffusion / agar,3 mm
CC1=C(Cl)C(O)=CC(=O)C12Oc1cc(O)c(Cl)c(C)c1C2=O,MTCC 282,50 µg/mL,agar diffusion,22 mm
CCCCOc1ccc(-c2csc(NS(=O)(=O)C3C(=O)ONN3c3ccc(C)cc3)n2)cc1,MTCC 282,250 µg/mL,agar diffusion,24 mm
CSC1=NC(c2ccccc2Cl)C(C#N)=C(N)N1,MTCC 282,25 µg/mL,agar diffusion,13 mm
Cc1ccc2c(c1)C1(C(=O)N2CCCCCCN2C(=O)C3(SCC(=O)N3c3c(C)n(C)n(-c4ccccc4)c3=O)c3cc(C)ccc32)c2c(C)nn(-c3ccccc3)c2Oc2c1c(C)nn2-c1ccccc1,MTCC 282,100 µg/mL,agar diffusion,16 mm
Cc1ccc(Oc2ccc(-c3nc4ccccc4c4cc5ccccc5n34)cc2)cc1,,1000 µg/mL,agar diffusion,10 mm
Clc1cccc(NCc2cc3ccccc3nc2Cl)c1,MTCC 281,200 µg/mL,agar diffusion,13.4 mm
CCOc1ccc2nc(NS(=O)(=O)C3C(=O)ONN3c3ccc(C)cc3)sc2c1,MTCC 282,250 µg/mL,agar diffusion,23 mm
CSC1=NC(c2ccccc2[N+](=O)[O-])C(C#N)=C(N)N1,MTCC 282,50 µg/mL,agar diffusion,14 mm
N#C/C(=C\c1ccc(Cl)cc1)c1ccccc1,,100 µg,agar diffusion,0 mm
Cc1ccc(S(=O)(=O)CNc2oc3[nH]c(=O)[nH]c(=O)c3c2-c2ccc(O)cc2)cc1,,50 µg/mL,agar diffusion / agar,0 mm
O=c1[nH]n(-c2nc3[nH]c4ccc(Cl)cc4c3c3ccccc23)c(=O)c2ccccc12,MTCC 281,6.25 µg/mL,agar diffusion / visual reading,4 mm
CS(=O)(=O)c1nc(N)c(C#N)c(-c2ccc(O)cc2)n1,MTCC 282,50 µg/mL,agar diffusion,19 mm
CCCCNCc1cc2ccccc2nc1Cl,MTCC 281,200 µg/mL,agar diffusion,9.47 mm
COc1ccc(C2=NNc3c4ccccc4c4c5cc(Cl)ccc5nc-4n3C2)cc1,MTCC 281,3.125 µg/mL,agar diffusion / visual reading,8 mm
CN(C)c1ccc(/C=C(\C#N)c2ccc([N+](=O)[O-])cc2)cc1,,100 µg,agar diffusion,0 mm
CCOC(=O)c1ccc(N=Nc2c(C)[nH]n(C(=O)c3sc4ccc(Cl)cc4c3Cl)c2=O)cc1,ATCC 9029,40 µg/mL,agar diffusion / agar,17 mm
Cc1ccc(N2NOC(=O)C2S(=O)(=O)Nc2nc3ccc([N+](=O)[O-])cc3s2)cc1,MTCC 282,250 µg/mL,agar diffusion,25 mm
COc1ccc2[nH]c3nc(-n4nc(-c5ccccc5)c5ccccc5c4=O)c4ccccc4c3c2c1,MTCC 281,3.125 µg/mL,agar diffusion / visual reading,8 mm
CS(=O)(=O)c1nc(N)c(C#N)c(-c2ccccc2Cl)n1,MTCC 282,100 µg/mL,agar diffusion,20 mm
Cc1ccc(NCc2cc3ccccc3nc2Cl)cc1,MTCC 281,200 µg/mL,agar diffusion,10.9 mm
Cc1[nH]n(C(=O)c2sc3ccc(Cl)cc3c2Cl)c(=O)c1N=Nc1c(Br)cc(Br)cc1Br,ATCC 9029,40 µg/mL,agar diffusion / agar,18 mm
Cc1ccc2c(c1)C1(C(=O)N2CCCCCCN2C(=O)C3(SCC(=O)N3c3c(C)n(C)n(-c4ccccc4)c3=O)c3cc(F)ccc32)c2c(C)nn(-c3ccccc3)c2Oc2c1c(C)nn2-c1ccccc1,MTCC 282,100 µg/mL,agar diffusion,17 mm
C/C(Cl)=C/C=C/C=C/C=C/C=C/C(O)=C1\C(=O)[C@H](CC(N)=O)N(C2OC[C@@H](O)[C@H](O)[C@@H]2O[C@@H]2OC[C@@H](O[C@@H]3O[C@H](C)[C@@H](O)[C@@H]3O)[C@@H](O)[C@@H]2O)C1=O,,100 µg/disc,agar diffusion / agar,28 mm
Cc1ccc(-c2csc(NS(=O)(=O)C3C(=O)ONN3c3ccc(C)cc3)n2)cc1,MTCC 282,250 µg/mL,agar diffusion,23 mm
CC(=O)N1N=C(c2sc3ccc(Cl)cc3c2Cl)OC1c1cc2cc(C)ccc2nc1Cl,ATCC 9029,40 µg/mL,agar diffusion / agar,11 mm
CN(Cc1cc2ccccc2nc1Cl)c1ccccc1,MTCC 281,200 µg/mL,agar diffusion,13.24 mm
Cc1ccc(C2=NNc3c4ccccc4c4c5cc(C)ccc5nc-4n3C2)cc1,MTCC 281,12.5 µg/mL,agar diffusion / visual reading,11 mm
CC(=O)Nc1ccc(N=Nc2c(C)[nH]n(C(=O)c3sc4ccc(Cl)cc4c3Cl)c2=O)cc1,ATCC 9029,40 µg/mL,agar diffusion / agar,15 mm
Cc1ccc2c(c1)C1(SCC(=O)N1c1c(C)n(C)n(-c3ccccc3)c1=O)C(=O)N2CCCCCCN1C(=O)C2(c3ccccc31)c1c(C)nn(-c3ccccc3)c1Oc1c2c(C)nn1-c1ccccc1,MTCC 282,100 µg/mL,agar diffusion,16 mm

Repeating the final 5 entries:

SMILES,strain,tested at,read by,value
CC(=O)N1N=C(c2sc3ccc(Cl)cc3c2Cl)OC1c1cc2cc(C)ccc2nc1Cl,ATCC 9029,40 µg/mL,agar diffusion / agar,11 mm
CN(Cc1cc2ccccc2nc1Cl)c1ccccc1,MTCC 281,200 µg/mL,agar diffusion,13.24 mm
Cc1ccc(C2=NNc3c4ccccc4c4c5cc(C)ccc5nc-4n3C2)cc1,MTCC 281,12.5 µg/mL,agar diffusion / visual reading,11 mm
CC(=O)Nc1ccc(N=Nc2c(C)[nH]n(C(=O)c3sc4ccc(Cl)cc4c3Cl)c2=O)cc1,ATCC 9029,40 µg/mL,agar diffusion / agar,15 mm
Cc1ccc2c(c1)C1(SCC(=O)N1c1c(C)n(C)n(-c3ccccc3)c1=O)C(=O)N2CCCCCCN1C(=O)C2(c3ccccc31)c1c(C)nn(-c3ccccc3)c1Oc1c2c(C)nn1-c1ccccc1,MTCC 282,100 µg/mL,agar diffusion,16 mm

Rows are shuffled and stem from different studies. Zone: diameter of growth inhibition.